Compound potency records, mixed from different reports. Data source: NIAID ChemDB in PubChem.

All rows: whole-cell or culture tests

An empty or dashed field is not shown. A number after MIC or MFC names an inhibition level or a share of isolates. Rows are shuffled and stem from different studies.

structure | changes | measure | setting | read by | strain | agent | result
O=C1c2cc(Cl)ccc2OP(=O)(c2ccccc2)N1c1ccc(C(F)(F)F)cc1 |  | MIC | 21 d |  | My 6509/96 | Mycobacterium kansasii | 8 µM
CN(C)c1cc(NC(=O)CNC(C)(C)C)c(O)c2c1C[C@H]1C[C@H]3[C@H](N(C)C)C(=O)C(C(N)=O)=C(O)[C@@]3(O)C(=O)C1=C2O |  | MIC |  | broth dilution | V128 | Mycobacterium massiliense | 2 µg/mL
O=C(Nc1ccc(Cl)cc1)c1cc(Cl)ccc1OP(=O)(OCc1ccccc1)OCc1ccccc1 |  | MIC | 7 d |  | My 235/80 | Mycobacterium kansasii | 16 µM
CC[C@@H](C(=O)[C@@H](C)[C@@H](O)[C@H](C)[C@@H]1O[C@@H]([C@@H](CC)C(=O)O)CC[C@@H]1C)[C@H]1O[C@@]2(C=C[C@@H](O)[C@@]3(CC[C@@](C)([C@H]4CC[C@](O)(CC)[C@H](C)O4)O3)O2)[C@H](C)C[C@@H]1C | C410 deletion | MIC |  | resazurin |  | Mycobacterium aurum | 0.08 µg/mL
O=C(Nc1ccc(Cl)c(Cl)c1)c1cc(Cl)ccc1OP(=O)(c1ccccc1)c1ccccc1 |  | MIC | 21 d |  | My 235/80 | Mycobacterium kansasii | 8 µM
COc1ccc(Cn2cc(/C=N/NC(=S)NN)c3ccccc32)cc1 |  | MIC100 | 24 h | broth dilution | 1173P2 | Mycobacterium bovis BCG | >500 µg/mL
COc1cc(Cc2cnc(N)nc2N)cc(OC)c1Br |  | MIC |  |  | Isolate 94-539 | Mycobacterium ulcerans | 4 µg/mL
O=C(Nc1ccc(Cl)cc1)c1cc(Cl)ccc1OP(=O)(c1ccccc1)c1ccccc1 |  | MIC | 14 d |  | My 235/80 | Mycobacterium kansasii | 8 µM
NNC(=S)N/N=C/c1cn(Cc2ccc(F)cc2)c2ccccc12 |  | MIC100 | 48 h | broth dilution | 1173P2 | Mycobacterium bovis BCG | >500 µg/mL
CC[C@H]1OC(=O)[C@H](C)[C@@H](O[C@H]2C[C@@](C)(OC)[C@@H](O)[C@H](C)O2)[C@H](C)[C@@H](O[C@@H]2O[C@H](C)C[C@H](N(C)C)[C@H]2O)[C@](C)(OC)C[C@@H](C)C(=O)[C@H](C)[C@@H](O)[C@]1(C)O |  | MIC |  | broth dilution | X19 | Mycobacterium massiliense | 0.125 µg/mL
CCOc1cc(Cc2cnc(N)nc2N)cc(OCC)c1-n1cccc1 |  | MIC |  |  | Isolate 5143 | Mycobacterium ulcerans | 0.5 µg/mL
NNC(=S)N/N=C/c1cn(Cc2cccc(F)c2)c2ccccc12 |  | MIC100 | 24 h | broth dilution | 1173P2 | Mycobacterium bovis BCG | >500 µg/mL
CNc1ccc2oc(C[C@@H]3OC4(CC[C@@H]3C)O[C@H](C(C)C(=O)c3ccc[nH]3)[C@H](C)C[C@H]4C)nc2c1C(=O)O |  | MIC |  | resazurin | L948 | Mycobacterium abscessus | >20 µg/mL
O=C(Nc1ccc(C(F)(F)F)cc1)c1cc(Br)ccc1OP(=O)(OCc1ccccc1)OCc1ccccc1 |  | MIC | 7 d |  | My 235/80 | Mycobacterium kansasii | 8 µM
Cc1ccc(Cn2cc(/C=N/NC(=S)NN)c3ccccc32)cc1 |  | MIC100 | 24 h | broth dilution | 1173P2 | Mycobacterium bovis BCG | >500 µg/mL

Again, the opening 2 rows:

structure | changes | measure | setting | read by | strain | agent | result
O=C1c2cc(Cl)ccc2OP(=O)(c2ccccc2)N1c1ccc(C(F)(F)F)cc1 |  | MIC | 21 d |  | My 6509/96 | Mycobacterium kansasii | 8 µM
CN(C)c1cc(NC(=O)CNC(C)(C)C)c(O)c2c1C[C@H]1C[C@H]3[C@H](N(C)C)C(=O)C(C(N)=O)=C(O)[C@@]3(O)C(=O)C1=C2O |  | MIC |  | broth dilution | V128 | Mycobacterium massiliense | 2 µg/mL